Compound potency records, mixed from different reports. Data source: NIAID ChemDB in PubChem.

Common to all: tests in culture; organism: Mycobacterium tuberculosis

An empty or dashed field is not shown. ECn is the concentration giving n% inhibition of infection, replication or growth. a–b is a range or a potency band. Percent inhibition refers to the dose given; in toxicity tests it is the harm to the cells. A number after MIC or MFC names an inhibition level or a share of isolates. Rows are shuffled and stem from different studies. MIC bound comes from a single tested concentration.

SMILES | tested at | strain or isolate | endpoint | changes | read by | result
CC1(C)O[C@H]2OC([C@H](CCO)NCCCCCCCN[C@@H](CCO)C3O[C@@H]4OC(C)(C)O[C@@H]4[C@H]3OCc3ccccc3)[C@H](OCc3ccccc3)[C@H]2O1 | - | H37Rv | MIC | - | - | >50 µg/mL
CC1=[N+](C)N(c2ccccc2)C(=O)C1Nc1nc(Nc2ccc(C#N)cc2)nc(Oc2cc(=O)n(C)c3ccccc23)n1 | 100 µg/mL | - | inhibition | - | agar | 62.5%
CCCCCCCCOc1cccc(NC(=O)OCCN(C)C)c1 | - | My 331/88 | MIC | - | - | 8 µM
CC1CCCCN1c1cncc(C(=O)NO)n1 | - | H37Rv | MIC | - | - | 500 µg/mL
Cc1nc(C(N)=O)c(C(=O)O)nc1C.N | 12.5 µg/mL | H37Rv | inhibition | - | BACTEC | 11%
CCOc1cccc(NC(=O)OCCN2CCCCC2)c1 | - | My 331/88 | MIC | - | - | 600 µM
C1=C(c2nc(-c3ccccn3)no2)c2ccccc2C12CCN(CC1CCCO1)CC2 | - | H37Rv | MIC | - | resazurin | 12.5 µM
C/C(=N\OCCc1nnc(Nc2ccccc2)o1)c1ccccc1 | 12.5 µg/mL | - | inhibition | - | - | 7–56%
CCCCCCCCNC(CC(=O)OCC)c1ccc([N+](=O)[O-])cc1 | - | H37Ra | MIC | - | - | <25 µg/mL
CC1(C)C[C@H]2[C@@H](C1)[C@@H]([C@H](CCO)NCCCCCCCCN[C@@H](CCO)[C@H]1O[C@@H]3CC(C)(C)C[C@@H]3[C@H]3CC(C)(C)C[C@H]31)O[C@@H]1CC(C)(C)C[C@H]21 | - | H37Rv | MIC | - | - | 25 µg/mL
C[C@@H]([C@H](NC(=O)[C@H](CC1CCCCC1)NC(=O)N[C@@H](Cc1c[nH]c2ccccc12)C(=O)NCc1ccccc1)C(=O)NC[C@H]1C[C@@H](O)[C@H](n2ccc(=O)[nH]c2=O)O1)N(C)C(=O)CN | - | H37Rv | MIC99 | - | resazurin / fluorescence | >0.5 µM
NNC(=O)c1ccncc1 | - | MDR-843 | MIC | - | resazurin | 2 µg/mL
S=C(NCN1CCOCC1)c1cncc(-n2ccnc2)n1 | - | H37Rv | MIC | - | - | 500 µg/mL
Cn1c(=O)cc(Oc2nc(Nc3ccc(C#N)cc3)nc(Nc3ccccn3)n2)c2ccccc21 | 500 µg/mL | - | inhibition | - | agar | 94%
C[C@@H]([C@H](NC(=O)[C@H](Cc1ccc2ccccc2c1)NC(=O)N[C@@H](Cc1c[nH]c2ccccc12)C(=O)OCc1ccccc1)C(=O)NC[C@H]1C[C@@H](O)[C@H](n2ccc(=O)[nH]c2=O)O1)N(C)C(=O)CN | - | H37Rv | MIC50 | - | resazurin / fluorescence | 0.015 µM
COc1cc2oc(-c3ccc(O)cc3O)c(CC=C(C)C)c(=O)c2c(O)c1/C=C/C(C)C | - | CS-R | MIC | - | - | >12.5 µg/mL
c1ccc(Nc2nnc(CON=C(c3ccccc3)c3ccccc3)o2)cc1 | 12.5 µg/mL | - | inhibition | - | - | 7–56%
CCCCCCCOc1ccc(NC(=O)OCCN2CCCCC2)cc1 | - | My 331/88 | MIC | - | - | 16 µM
O=C(NNC(=O)c1ccc(F)cc1)c1ccc(F)cc1 | - | H37Rv | MIC bound | - | resazurin | >6.25 µg/mL
CC(C)(C)c1ccc(CN2CCC3(CC2)C(=O)Nc2ccccc23)cc1 | - | H37Rv | MBC | - | colony count / visual reading | 12 µM
CCNC(=O)c1c2c(nc3ccccc13)-c1ccccc1C(C)(C)C2O | - | H37Rv | MIC bound | - | BACTEC | >12.5 µg/mL
CCCCNC(CC(=O)OCC)c1cccc([N+](=O)[O-])c1 | - | Sensitive strains | MIC | - | - | 25 µg/mL
COc1c2occc2c(N=Cc2ccncc2)c2ccc(=O)oc12 | - | H37Rv | MIC bound | - | resazurin | >6.25 µg/mL
c1ccc(Nc2nnc(CCON=C(c3ccccc3)c3ccccc3)o2)cc1 | 12.5 µg/mL | - | inhibition | - | - | 7–56%
CCn1cc(C(=O)O)c(=O)c2cc(F)c(N3CCNC(C)C3)c(F)c21 | - | H37Rv | MBC | - | - | 2 µg/mL
Oc1cccc(CNCCCCCNCc2cccc(O)c2)c1 | - | Sensitive strains | MIC | - | - | 6.25 µg/mL
C/C(=N\OCCc1nnc(NCc2ccccc2)o1)c1ccccc1 | 12.5 µg/mL | - | inhibition | - | - | 7–56%
CCCCCCOc1ccccc1NC(=O)OCCN1CCCCCC1 | - | My 331/88 | MIC | - | - | 16 µM
S=c1[nH]nc(CON=C(c2ccccc2)c2ccccc2)o1 | 12.5 µg/mL | - | inhibition | - | - | 7–56%
NCCCN1c2ccccc2Sc2ccccc21 | - | MDR-6233 | MIC | - | resazurin | 2 µg/mL
CC1(C)CC[C@]2(C(=O)O)CC[C@]3(C)C(CC[C@@H]4[C@@]5(C)C[C@H](O)CC(C)(C)[C@@H]5CC[C@]43C)[C@@H]2C1 | - | Clinical isolate MTY147 | MIC | - | resazurin | 50 µg/mL
CCn1cc(C(=O)O)c(=O)c2ccc(C)nc21 | - | H37Rv | MIC90 | gyrA mutation D94G | - | >50 µM
CC1(C)C[C@H]2[C@@H](C1)[C@@H](C(CCO)NCCCCCCCCCCCCNC(CCO)[C@H]1O[C@@H]3CC(C)(C)C[C@@H]3[C@H]3CC(C)(C)C[C@H]31)O[C@@H]1CC(C)(C)C[C@H]21 | - | H37Rv | MIC | - | - | 12.5 µg/mL
CCCCCCCCCCCCOC(=O)[C@H](Cc1c[nH]c2ccccc12)NC(=O)N[C@@H](Cc1ccc2ccccc2c1)C(=O)N[C@H](C(=O)NC[C@H]1C[C@@H](O)[C@H](n2ccc(=O)[nH]c2=O)O1)[C@H](C)N(C)C(=O)CN | - | H37Rv | MIC50 | - | resazurin / fluorescence | 0.25 µM
NC1=CC(=O)C(=O)c2ccccc21 | 6.25 µg/mL | H37Rv | inhibition | - | - | -28%
CCCCCOc1cccc(NC(=O)OCCN2CCCCC2)c1 | - | My 331/88 | MIC | - | - | 16 µM
Cc1cc(C(=O)O)c(C)n1-c1cccc(C(=O)O)c1 | - | H37Rv | MIC bound | - | BACTEC | >6.25 µg/mL
C=CCNc1nnc(CO/N=C(\C)c2ccccc2)o1 | 12.5 µg/mL | - | inhibition | - | - | 7–56%
CC[n+]1c(-c2ccccc2)c2cc(NCCCN)ccc2c2ccc(N)cc21 | 12.5 µg/mL | H37Rv | inhibition | - | BACTEC | 99%
CO[C@H]1/C=C/O[C@@]2(C)Oc3c(C)c(O)c4c(=O)c(c5oc6cc(N7CCN(CC(C)C)CC7)cc(=O)c6nc5c4c3=C2O)NC(=O)/C(C)=C\C=C\[C@H](C)[C@H](O)[C@@H](C)[C@@H](O)[C@@H](C)[C@H](OC(C)=O)[C@@H]1C | - | TBH1-7 (rifampin-susceptible) | MIC | - | - | <0.01 µg/mL
COc1ccc(NC(=O)OCCN2CCCCC2)cc1 | - | My 331/88 | MIC | - | - | 250 µM
Clc1ccc2c(n1)Sc1c(Cl)nc(Cl)nc1N2 | - | H37Rv | MIC bound | - | BACTEC | >12.5 µg/mL
O=C1N(CC2CC2)c2ccccc2C12CCN(CC1CCCO1)CC2 | - | H37Rv | MIC | - | resazurin | 200 µM
CN(C)c1ccc(NC2=C(Cl)C(=O)c3ccccc3C2=O)cc1 | 6.25 µg/mL | H37Rv | inhibition | - | resazurin | 54%
CCOC(=O)C[C@H](NCCCCCCCCCCN[C@@H](CC(=O)OCC)C1O[C@@H]2OC(C)(C)O[C@@H]2[C@H]1OCc1ccccc1)C1O[C@@H]2OC(C)(C)O[C@@H]2[C@H]1OCc1ccccc1 | - | H37Rv | MIC | - | - | >50 µg/mL
COc1cc2oc(=O)cc(C[C@H](NC(=O)N[C@@H](Cc3c[nH]c4ccccc34)C(=O)OCc3ccccc3)C(=O)N[C@H](C(=O)NC[C@H]3C[C@@H](O)[C@H](n4ccc(=O)[nH]c4=O)O3)[C@H](C)N(C)C(=O)CN)c2cc1OC | - | H37Rv | MIC50 | - | resazurin / fluorescence | 0.1 µM
Cc1ccc(-c2noc(C3=CC4(CCN(CC5CCCO5)CC4)c4ccccc43)n2)cn1 | - | ATCC 2794 | MIC | Drug-resistant | resazurin | 1.56 µM
CCOC(=O)c1cn(C)c2c(cc([N+](=O)[O-])c3cccnc32)c1=O | - | BCG | MIC90 | gyrA mutation D94G | - | 2.35 µM
CCCCCCCCCCCCNCc1ccccn1 | - | Sensitive strains | MIC | - | - | 1.56 µg/mL
CCOC(=O)C[C@H](NCCCCCCCCN[C@@H](CC(=O)OCC)C1O[C@@H]2OC(C)(C)O[C@@H]2[C@H]1OCc1ccccc1)C1O[C@@H]2OC(C)(C)O[C@@H]2[C@H]1OCc1ccccc1 | - | H37Rv | MIC | - | - | 25 µg/mL
C=CCNc1nnc(CON=C(c2ccccc2)c2ccccc2)o1 | 12.5 µg/mL | - | inhibition | - | - | 7–56%
CC(=O)Nc1ccc(/C=N/Nc2ccc([N+](=O)[O-])cn2)cc1 | - | H37Rv | MIC bound | - | BACTEC | >12.5 µg/mL
C(=C\c1nnc(CON=C(c2ccccc2)c2ccccc2)o1)/c1ccccc1 | 12.5 µg/mL | - | inhibition | - | - | 7–56%
NNC(=O)c1ccncc1 | - | 19 strains | MIC50 | - | - | 0.1 µg/mL
CCCCCOc1ccccc1NC(=O)OCCN1CCOCC1 | - | My 331/88 | MIC | - | - | 125 µM
S=c1[nH][nH]c(=S)c2c1[nH]c(=S)n2Cc1ccccc1 | - | H37Rv | MIC | - | BACTEC | 6.25 µg/mL
O=c1cc(-c2ccccc2)c2cc(Cl)ccc2o1 | - | - | MIC90 | Isoniazid-resistant | resazurin | >100 µg/mL
NC(=O)c1cncc(-n2cncn2)n1 | - | SP 607 | MIC | - | - | 2000 µg/mL
NNC(=O)c1ccncc1 | - | H37Rv | MIC | - | resazurin | 0.03 µg/mL
Cc1nn2c(=O)c([N+](=O)[O-])c(/C=C/c3ccc(F)cc3)nc2s1 | - | H37Rv | MIC bound | - | resazurin | >6.25 µg/mL
CCCCCCCCCCCCNCc1ccccc1O | - | Clinical isolates MDR | MIC | - | - | 25 µg/mL
Cc1ccc(S(=O)(=O)N(/N=C/C=C/c2ccccc2)c2nnc(-c3ccccc3)c(-c3ccccc3)n2)cc1 | - | H37Rv | MIC bound | - | BACTEC | >12.5 µg/mL
CCCCCCCCC=CCCCCCCCCNCc1ccc(Cl)cc1 | - | H37Ra | MIC | - | - | >25 µg/mL
Cc1cc(N=NC(N)=O)c2ccccc2c1O | 12.5 µg/mL | H37Rv | inhibition | - | BACTEC | 8%
CC1CCCCN1c1cncc(/C(N)=N/O)n1 | - | Isoniazid-resistant | MIC | - | - | 250 µg/mL
CCCCCCCCCCCCOC(=O)[C@H](Cc1c[nH]c2ccccc12)NC(=O)N[C@@H](CC1CCCCC1)C(=O)N[C@H](C(=O)NC[C@H]1C[C@@H](O)[C@H](n2ccc(=O)[nH]c2=O)O1)[C@H](C)N(C)C(=O)CN | - | H37Rv | MIC99 | - | resazurin / fluorescence | 0.625 µM
[O-][n+]1c2ccccc2[n+]([O-])c2cc(O)ccc21 | - | H37Rv | MIC | - | BACTEC | ≥12.5 µg/mL
COc1ccc(-c2noc(C3=CC4(CCN(CC5CCCO5)CC4)c4ccccc43)n2)cc1 | - | 18b+ | MIC | Drug-resistant | resazurin | 0.78 µM
Cc1ccc2nc(Nc3nc(Nc4ccc(C#N)cc4)nc(Oc4cc(=O)n(C)c5ccccc45)n3)sc2c1 | 250 µg/mL | - | inhibition | - | agar | 94%
NC(=O)c1ccc[n+](CC(=O)c2ccc(F)cc2)c1.[Br-] | - | H37Rv | MIC bound | - | BACTEC | >12.5 µg/mL
Cn1c(=O)cc(Oc2nc(Nc3ccc(C#N)cc3)nc(Nc3nc4ccccc4s3)n2)c2ccccc21 | - | - | EC95 | - | agar | 200 µg/mL
O=c1cc(O)c1=O | - | H37Rv | MIC | - | BACTEC | ≥12.5 µg/mL
CN[C@@H]1[C@H](O[C@H]2[C@H](O[C@H]3[C@H](O)[C@@H](O)[C@H](N=C(N)N)[C@@H](O)[C@@H]3N=C(N)N)O[C@@H](C)[C@]2(O)C=O)O[C@@H](CO)[C@H](O)[C@H]1O | - | 19000 | MIC | Rifampicin-resistant | resazurin | 0.5 µM
COc1ccc(CCN2COc3ccc4ccc(=O)oc4c3C2)cc1OC | - | H37Rv | MIC bound | - | BACTEC | >12.5 µg/mL
Brc1ccc(Nc2nnc(CON=C(c3ccccc3)c3ccccc3)o2)cc1 | 12.5 µg/mL | - | inhibition | - | - | 7–56%
Cn1c(=O)cc(Oc2nc(Nc3ccc(C#N)cc3)nc(Oc3cc(=O)oc4ccccc34)n2)c2ccccc21 | 100 µg/mL | - | inhibition | - | agar | 96%
CC(C)CC(=O)N[C@H](C(=O)N[C@H](C(=O)N[C@@H](CC(C)C)[C@@H](O)CC(=O)N[C@@H](C)C(=O)N[C@@H](CC(C)C)[C@@H](O)CC(=O)O)C(C)C)C(C)C | 12.5 µg/mL | H37Rv | inhibition | - | BACTEC | 3%
CCCCCCNC(=O)[C@H](Cc1c[nH]c2ccccc12)NC(=O)N[C@@H](Cc1ccc2ccccc2c1)C(=O)N[C@H](C(=O)NC[C@H]1C[C@@H](O)[C@H](n2ccc(=O)[nH]c2=O)O1)[C@H](C)N(C)C(=O)CN | - | H37Rv | MIC50 | - | resazurin / fluorescence | 0.089 µM

A second listing of 8 rows from above:

SMILES | tested at | strain or isolate | endpoint | changes | read by | result
O=C1N(CC2CC2)c2ccccc2C12CCN(CC1CCCO1)CC2 | - | H37Rv | MIC | - | resazurin | 200 µM
CCOC(=O)c1cn(C)c2c(cc([N+](=O)[O-])c3cccnc32)c1=O | - | BCG | MIC90 | gyrA mutation D94G | - | 2.35 µM
O=c1cc(-c2ccccc2)c2cc(Cl)ccc2o1 | - | - | MIC90 | Isoniazid-resistant | resazurin | >100 µg/mL
S=c1[nH][nH]c(=S)c2c1[nH]c(=S)n2Cc1ccccc1 | - | H37Rv | MIC | - | BACTEC | 6.25 µg/mL
CCCCCOc1cccc(NC(=O)OCCN2CCCCC2)c1 | - | My 331/88 | MIC | - | - | 16 µM
CCCCCCCCCCCCOC(=O)[C@H](Cc1c[nH]c2ccccc12)NC(=O)N[C@@H](Cc1ccc2ccccc2c1)C(=O)N[C@H](C(=O)NC[C@H]1C[C@@H](O)[C@H](n2ccc(=O)[nH]c2=O)O1)[C@H](C)N(C)C(=O)CN | - | H37Rv | MIC50 | - | resazurin / fluorescence | 0.25 µM
C/C(=N\OCCc1nnc(Nc2ccccc2)o1)c1ccccc1 | 12.5 µg/mL | - | inhibition | - | - | 7–56%
C=CCNc1nnc(CON=C(c2ccccc2)c2ccccc2)o1 | 12.5 µg/mL | - | inhibition | - | - | 7–56%